Data: article PMC4496674, “Tackling Critical Catalytic Residues in Helicobacter pylori L-Asparaginase” (Biomolecules, 2015)

Tested on: NC(=O)C[C@H](N)C(=O)O
Experiment: purified protein
Conditions: 50 mM HEPES pH 7.5, 37 °C, hyperbolic

Work on “HpASNase (Helicobacter pylori 26695; E289A)” yielded a K0.5 of 0.17 ± 0.02 mM, a kcat of 0.44 s⁻¹ and a kcat/Km of 2600 M⁻¹ s⁻¹.
